Reference: the supplement of paper PMC9931576
Substitutions are numbered along the chain they refer to. Human monoclonal antibodies against the spike receptor-binding domain (heavy:light variable regions). IC50 against pseudoviruses bearing the spike of naturally observed variants; lower = stronger; >10 µg/ml means not reached at the top dose. No active / inactive call. The stated detection limit is 0.0005 µg/ml; values near or below 0.001 µg/ml lie at the floor of the assay.

B1: BD56-1246 (protein)
chain 1: QVQLVESGGGVVQPGRSLRLSCAASGFTFSNYDMHWVRQAPGKGLEWVAVISYDGSSKFYADSVKGRFTVSRDNSKNTLYLQMNSLRIEDTALYFCAKDFGHQLVDFFDFWGQGTLVTVSS
chain 2: DIQMTQSPSSLSASVGDRVTITCRASQSIGTYLNWYQQKPGKAPILLIYTASSLHTGVPSRFSGSGSGTDFTLTISSLQPEDLATYYCQQSYVTPPWTFGHGTKVEIK
B2: BD56-1258 (protein)
chain 1: QVQLVQSGAEVKRPGSSVKVSCKASGGTFSSSGISWVRQAPGQGLEWMGRIIPVLGITNYAQKFQGRVTITADKSTSTVYMDMSSLTSEDTAMYYCARDQNTVTTFGIGHYYGMDVWGQGSTVTVSS
chain 2: DIQMTQPSTLSASVGDRVTITCRASQSISSWLAWYQQKPGKAPKLLIYDASSLESGVPSRFSGSGSGTDFTLTISSLQPGDFATYYCQQYNSYPLFGQGTKVEIK
B3: BD56-1261 (protein)
chain 1: QVQLQESGPGLVKPSQTLSLTCTVSGGSIRNDDYYWSWIRQPPGKGLEWIGYIHYSGNTYYNPSLKSRVAISVDTSKNQFSLKLRSVTAADTAVYYCARVDVGGRLVSTFDYWGQGTLVSVSS
chain 2: NFMLTQPHSVSESPGMTVTISCTGSSGSIASNYVQWYQQRPGSAPTTVIYENNQRPSGVPDRFSGSIDSSSNSASLTISGLKTEDEADYYCQSYDDSNIAVFGGGTQLTVL
B4: BD56-1263 (protein)
chain 1: EVQLVESGGGLVQPGRSLRLSCAASGFTFDDYAMHWVRQAPGKGLEWVSGVSWNSGTIGYADSVKGRFIIIRDNAKNSLYLQMNSLRAEDTALYYCAKDIGRLDAMVMGNDYWGQGTLVTVSS
chain 2: QSALTQPASVSGSPGQSITITCTGTSSDVGGYNFVSWYQQHPGKAPKLMIYDVTKRPSGVSNRFSGSKSGNTASLIISGLQAEDEADYYCTSYTSSSTGVFGGGTKLTVL
B5: BD56-1264 (protein)
chain 1: EVQLVESGGGLVQPGRSLRLSCAASGFTFDDYGMHWVRQAPGKGLEWVAGISWKSGKTVYADSVKGRFTISRDNARNSVYLQMNTQRAEDTALYYCAKDMGWNDDILTGLSFNMDVWGQGTTVTVSS
chain 2: DIVLTQSPGTLSLSPGERATLSCRASQSVSSSSLAWYQQKPGQAPRFLIYAASSRATGIPDRFSGSGSGTDFTLTISRLEPEDFAVYYCQQCGSSTTTFGQGTKVEIK
B6: BD56-1267 (protein)
chain 1: B3 chain 1 with Q5E, D32E, D33Y, K45Q, I53M, T75M, R85S, A89V, Y112H, S120T
chain 2: B3 chain 2 with N53D, L108V
B7: BD56-1268 (protein)
chain 1: EVQLVESGGGLVQPGRSLRLSCEASGFTFDDYAMHWVRQAPGKGLEWVSGVSWNSGTIGYADSVKGRFFIIRDNGGNSLYLQMIRLRVEDTALYYCAKDTRRSTGQGEAYGLDVWGRGTTVTVSS
chain 2: QSALTQPASVSGSPGQSITFSCTGTSSDVGSYNLVSWYQQHPGRAPKLIISEVSKRPSGISNRFSGSKSGNTASLTISGLQAEDEADYYCCSYAENTTFEGVIFGGGTKLTVL
B8: BD56-1270 (protein)
chain 1: QVQLVQSGAEVKKPGASVKVSCKASGYTFTTYHIHWVRQAPGQGLEWMGIINPSGGGTRYAQKFQGRVTMTGDTSTSTGYMELSSLRSEDTAVYFCARELVAPAAGYMDVWGKGTTVTVSS
chain 2: SYVLTQPPSVSVAPGKTARITCGGNNIGSKSVHWYQQKPGQAPVVVVYDDSDRPSGIPERFSGSNSGNTATLTINRVEAGDEADYYCQVWDTSSDHFYVFGGGTKVTVL
B9: BD56-1275 (protein)
chain 1: QVQLVQSGAEVKKPGSSVKVSCKASGGTFSSYSIVWVRQAPGQGLEWMGRIIPILGVANYAQMFQGRVTITADRSTNTAYLEVSSLRSEDTAVYYCAREIGTTGAPWFIPWGQGTLVIVSS
chain 2: QSVLTQPPSVSGAPGQRVTISCTGSDSNIGAGYDVHWYQKLPGTAPKLLIYGNNNRPSGVPDRFTGSKSDTSVSLAITGLQAEDEADYYCQSYDSGLIGVIFGGGTKLTVL
B10: BD56-1277 (protein)
chain 1: QVQLVQSGAEVKKPGASVKVSCKASGYTFSAYYIHWVRQAPGQGLEWMGWIDPNSGGTNYAQKFRARVTMTRDTSISTVFMELSRLRSDDTAVYYCARDSPGSSWSEVNWFDPWGQGTVVTVSS
chain 2: DIQMTQSPSSLSASVGDRVTITCRASQSISSELNWYQQKPGKAPKLLIYAASSLQSGVPSRFTGSGSGTDFTLTISSLQPEDFAYYFCQQSYSTPPWTFGQGTRVEIK
B11: BD56-1280 (protein)
chain 1: QVQLVESGGGVVQPGRSLRLSCVASGFTFSTYGMHWVRQAPGKGLEWVAVIWHDGSKKDYADSVKGRFTISRDNSKNTLYLQTSSLRAEDTAVYYCARGHYGDEVGYYYFALDVWGQGTTVTVSS
chain 2: QSVLTQPPSVSGAPGQRVTITCTGTSSNIGAPYDVHWYQQLPGTVPKLLIFGDTNRPSGVPDRFSGSKSGTSASLAITGLQAEDEGDYYCQSYDSSLSGWVFGGGTKLTVL
B12: BD56-1283 (protein)
chain 1: EVHLVESGGGLVQPGGSLRLSCAASGFTFSSYDMHWVRQPTGKGLEWVSAIGTAGDTYYPDSVKGRFTSSRENDKKSLFLQMNSLRVGDTAVYYCARAVDCSASNCYSNWYFDLWGRGTLVTVSS
chain 2: DIQMTQSPSSLSASIGDRVTISCRASQSIGRFLHWYQQKPGKAPKLLIYDASTLQSGVTSRFSGGGSGTDFTLTISSLQPEDFATYYCQQSYSTPPITFGQGTRLEIK
B13: BD56-1288 (protein)
chain 1: B3 chain 1 with I29V, D32E, D33V, Q79H, K83N, R85N, S120T
chain 2: B3 chain 2 with T46S, N53Y, D61N, D96A

Each binder was assayed against SARS-CoV-2 Omicron BA.1 spike pseudovirus (assay: pseudovirus neutralization IC50; higher = weaker neutralization).
Experimental: (§1)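 Single-round VSV luciferase pseudovirus mixed with antibody dilutions for 1 h and put on Huh-7 cells for about a day; IC50 from the dose curve.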

Row | Binder | pseudovirus neutralization IC50 [µg/mL]
1 | B1 | 1.65
2 | B2 | 0.0397
3 | B3 | 5.18
4 | B4 | 0.108
5 | B5 | > 10
6 | B6 | 0.0107
7 | B7 | 0.0065
8 | B8 | > 10
9 | B9 | 0.0868
10 | B10 | 3.06
11 | B11 | 0.835
12 | B12 | > 10
13 | B13 | 0.751

Each binder was assayed against SARS-CoV-2 Omicron BA.2 spike pseudovirus in the same assay as above.
Experimental: as §1

Row | Binder | pseudovirus neutralization IC50 [µg/mL]
14 | B1 | 1.65
15 | B2 | 0.0289
16 | B3 | 1.37
17 | B4 | 0.0334
18 | B5 | > 10
19 | B6 | 0.00169
20 | B7 | 0.00721
21 | B8 | > 10
22 | B9 | 0.073
23 | B10 | 0.0832
24 | B11 | 0.138
25 | B12 | > 10
26 | B13 | 0.0376

Each binder was assayed against SARS-CoV-2 Omicron BA.2.75 spike pseudovirus in the same assay as above.
Experimental: as §1

Row | Binder | pseudovirus neutralization IC50 [µg/mL]
27 | B1 | 2.43
28 | B2 | 0.0253
29 | B3 | 2.13
30 | B4 | 0.112
31 | B5 | > 10
32 | B6 | 0.00477
33 | B7 | 0.00718
34 | B8 | > 10
35 | B9 | 0.0773
36 | B10 | 3.91
37 | B11 | 0.122
38 | B12 | > 10
39 | B13 | 0.0442

The binders below were run against SARS-CoV-2 Omicron BA.5 spike pseudovirus in the same assay as above.
Experimental: as §1

Row | Binder | pseudovirus neutralization IC50 [µg/mL]
40 | B1 | 1.67
41 | B2 | > 10
42 | B3 | 0.926
43 | B4 | 0.275
44 | B5 | > 10
45 | B6 | 0.0022
46 | B7 | 0.0524
47 | B8 | > 10
48 | B9 | 2.48
49 | B10 | 0.0863
50 | B11 | 0.083
51 | B12 | > 10
52 | B13 | 0.0325

Each binder was assayed against SARS-CoV-2 Omicron BQ.1.1 spike pseudovirus in the same assay as above.
Experimental: as §1

Row | Binder | pseudovirus neutralization IC50 [µg/mL]
53 | B1 | 2.25
54 | B2 | > 10
55 | B3 | 0.977
56 | B4 | > 10
57 | B5 | > 10
58 | B6 | 0.005
59 | B7 | > 10
60 | B8 | > 10
61 | B10 | > 10
62 | B11 | 0.217
63 | B12 | > 10
64 | B13 | 0.126

Each binder was assayed against SARS-CoV-2 Omicron XBB spike pseudovirus in the same assay as above.
Experimental: as §1

Row | Binder | pseudovirus neutralization IC50 [µg/mL]
65 | B1 | 1.39
66 | B2 | > 10
67 | B3 | 3.06
68 | B4 | 2.71
69 | B5 | > 10
70 | B6 | 0.00725
71 | B7 | 1.84
72 | B8 | > 10
73 | B10 | 3.13
74 | B11 | > 10
75 | B12 | > 10
76 | B13 | 0.0921

The binders below were run against SARS-CoV-2 early D614G spike pseudovirus in the same assay as above.
Experimental: as §1

Row | Binder | pseudovirus neutralization IC50 [µg/mL]
77 | B1 | > 10
78 | B2 | 0.0329
79 | B3 | 0.343
80 | B4 | 0.0974
81 | B5 | > 10
82 | B6 | 0.00194
83 | B7 | 0.0103
84 | B8 | 1.11
85 | B9 | 0.0568
86 | B10 | 0.05
87 | B11 | 1.24
88 | B12 | 2.03
89 | B13 | 0.00571
